Pooled drug test results. Numbers come from NIAID ChemDB, via PubChem.

Shared fields: whole-cell or culture tests; agent: Mycobacterium tuberculosis

MIC bound: limit read from a one-dose screen. Lines come from different laboratories, so protocols vary. Blank or dashed fields: not listed here. Inhibition is in % at the dose shown (toxicity tests: loss of growth or viability). Two numbers with a dash give a range or band. ECn is the concentration giving n% inhibition of infection, replication or growth. MIC50, MIC90 and the like: level of inhibition, or share of isolates inhibited.

structure,mutations,read by,strain,read-out,tested at,value
CC1=CC[C@]2(C)CC[C@@]3(C)[C@H](C(C(C)C)=C[C@@H]3O)[C@H]2CC1,-,resazurin,H37Rv,inhibition,6.25 µg/mL,50%
COC(=O)c1cc2c(c(C(=O)OC)c1C(=O)OC)c(=O)n(C)c1ccccc21,-,BACTEC,H37Rv,inhibition,12.5 µg/mL,-4%
C/C(=C\CN(C(C)C)C(C)C)CCC[C@H](C)CCC[C@H](C)CCCC(C)C,-,-,H37Rv,MIC,-,64 µg/mL
O=C(Cc1cccs1)N/N=C/c1ccc(O)c(O)c1,-,resazurin,H37Rv (ATCC 27294),MIC,-,361.9 µM
O=C(CCl)c1cccc(-c2ccccc2)c1,-,-,H37Rv,MIC,-,50 µg/mL
N#Cc1c(NC(=O)c2c(F)c(F)c(F)c(F)c2F)sc2c1CCOC2,katG Y155 truncation mutant,turbidity,H37Rv,EC90,-,18 µM
C=CCNc1nnc(CO/N=C(\C)c2ccccc2)o1,-,-,-,inhibition,12.5 µg/mL,7–56%
CO[C@H]1/C=C/O[C@@]2(C)Oc3c(C)c(O)c4c(O)c(c(/C=N/N5CCN(C)CC5)c(O)c4c3C2=O)NC(=O)/C(C)=C\C=C\[C@H](C)[C@H](O)[C@@H](C)[C@@H](O)[C@@H](C)[C@H](OC(C)=O)[C@@H]1C,-,-,K2,MIC,-,1 µg/mL
C=C1C(=O)O[C@@H]2C[C@@]3(C)CCC=C(C)[C@@H]3C[C@H]12,-,-,H37Rv,MIC,-,128 µg/mL
O=C(Cc1cccs1)N/N=C/c1cccs1,-,resazurin,H37Rv (ATCC 27294),MIC,-,>100 µg/mL
C/C=C(\C)C(=O)O[C@H]1C[C@@H](OC(C)=O)[C@@]2(C(=O)OC)CO[C@H]3[C@@H](O)[C@@](C)([C@]45O[C@@]4(C)[C@H]4C[C@@H]5O[C@@H]5OC=C[C@@]54O)[C@H]4[C@]1(CO[C@]4(O)C(=O)OC)[C@@H]32,-,BACTEC,H37Rv,MIC bound,-,>12.5 µg/mL
COC(=O)c1sc(-c2ccccc2)nc1OCc1cnnn1-c1cc2ccc(N)cc2oc1=O,-,resazurin,H37Rv,MIC,-,13.15 µM
CCN1CCc2c(sc(NC(=O)c3c(F)c(F)c(F)c(F)c3F)c2C#N)C1,rpoB S522L mutant,turbidity,H37Rv,EC90,-,21 µM
O=C(Cc1cccs1)N/N=C/c1ccncc1,-,resazurin,H37Rv (ATCC 27294),MIC,-,>100 µg/mL
CCNC(=O)c1c(NC(=O)c2c(F)c(F)c(F)c(F)c2F)sc2c1CCN(CC)C2,katG Y155 truncation mutant,turbidity,H37Rv,EC50,-,5.7 µM
O=C(NCN1CCOCC1)c1cnccn1,-,-,PZA-resistant,MIC,-,100 µg/mL
CC(C)CCC[C@@H](C)CCC[C@@H](C)CCCC1(C)OC1CO,-,-,H37Rv,MIC,-,8 µg/mL
O=C(NCN1CCNCC1)c1cnccn1,-,-,PZA-resistant,MIC,-,100 µg/mL
CC1=NN(C(=O)c2ccncc2)C(=O)C1N=Nc1ccc(Cl)cc1,-,BACTEC,H37Rv,MIC bound,-,>12.8 µg/mL
CO[C@H]1/C=C/O[C@@]2(C)Oc3c(C)c(O)c4c(O)c(c(/C=N/N5CCN(C)CC5)c(O)c4c3C2=O)NC(=O)/C(C)=C\C=C\[C@H](C)[C@H](O)[C@@H](C)[C@@H](O)[C@@H](C)[C@H](OC(C)=O)[C@@H]1C,-,resazurin,H37Rv,MIC,-,0.23 µM
Cc1ccc(C(=O)OC[C@H]2CC[C@@H](n3cc(N(C)C4CCCCC4)c(=O)[nH]c3=O)O2)cc1,-,resazurin,H37Rv,MIC bound,-,>6.25 µg/mL
CCN1CCc2c(sc(NC(=O)c3c(F)c(F)c(F)c(F)c3F)c2C(=O)NC)C1,-,low oxygen,-,EC90,-,9.1 µM
COC(=O)CCc1nc(C(=O)OC)c(CCC(=O)OC)nc1C(=O)OC,-,BACTEC,H37Rv,inhibition,12.5 µg/mL,11%
CCN1CCc2c(sc(N)c2C(=O)Nc2ccccc2OC)C1,-,resazurin,H37Rv,MIC,-,>100 µg/mL
CN1CCN(CNC(=O)c2cnccn2)CC1,-,-,ATCC 35822,MIC,-,100 µg/mL
CN[C@@H]1[C@H](O[C@H]2[C@H](O[C@H]3[C@H](O)[C@@H](O)[C@H](N=C(N)N)[C@@H](O)[C@@H]3N=C(N)N)O[C@@H](C)[C@]2(O)C=O)O[C@@H](CO)[C@H](O)[C@H]1O,EJMCh6A MmpL3  (V684A),visual reading,H37Rv,MIC90,-,2 µM
COCC1(c2ccccc2)C(=O)N(C)C(=O)N1C,-,BACTEC,H37Rv,inhibition,12.5 µg/mL,0%
COC(=O)c1c(-c2ccc([N+](=O)[O-])o2)noc1N,-,-,-,MIC,-,10 µg/mL
CCOCCOCCOCc1nc(C#N)c(N)o1,-,resazurin,H37Rv,MIC bound,-,>6.25 µg/mL
N#Cc1ccc(/C=N/NC(=O)Cc2cccs2)cc1,-,resazurin,H37Rv (ATCC 27294),MIC,-,>100 µg/mL
CN(CNC(=O)c1cnccn1)Cc1ccccc1,-,-,ATCC 35822,MIC,-,100 µg/mL
O=[N+]([O-])c1ccc(C2=NOC(N3CCCCC3)C2c2ccccc2)o1,-,-,-,MIC,-,3 µg/mL
O=C(O)/C=C/c1c2ccc(=O)cc-2oc2cc(O)ccc12,-,BACTEC,H37Rv,inhibition,12.5 µg/mL,7%
CC1=CC[C@]2(C)CC[C@]3(C)C(=O)C=C(C(C)C)[C@@H]3[C@H]2CC1,-,resazurin,H37Rv,EC50,-,>6.25 µg/mL
c1ccc(OCc2nnc(CCON=C(c3ccccc3)c3ccccc3)o2)cc1,-,-,-,inhibition,12.5 µg/mL,7–56%
COC(=O)CC1(CC(N)=O)OCCS1,-,BACTEC,H37Rv,MIC bound,-,>12.5 µg/mL
CCOC(=O)c1c(N)sc2c1CCN(C(=O)OC(C)(C)C)C2,-,resazurin,H37Rv,MIC,-,>100 µg/mL
Clc1ccc(Nc2cc3nc4ccccc4n(-c4ccc(Cl)cc4)c-3cc2=NC2CCCCCC2)cc1,-,-,H37Rv,MIC,-,0.5 µg/mL
CN(C)CCNc1ccc(O)c2sc3ccccc3c(=O)c12,-,BACTEC,H37Rv,inhibition,12.5 µg/mL,9%
O=C(Cc1cccs1)N/N=C/c1ccc(O)cc1O,-,resazurin,H37Rv (ATCC 27294),MIC,-,361.9 µM
S=c1[nH]nc(CON=C(c2ccccc2)c2ccccc2)o1,-,-,-,inhibition,12.5 µg/mL,7–56%
Cc1cc2nc(CCC3CCCCC3)[nH]c2cc1C,6C MmpL3 (G253E),visual reading / absorbance,H37Rv,MIC90,-,1.93 µM
Cc1cnc(C(=O)NCN2CCN(C)CC2)cn1,-,-,PZA-resistant,MIC,-,100 µg/mL
CCCCCCCCO[C@@H]1O[C@H]([C@@H](COC)O[C@H]2O[C@H](COC(=O)c3ccccc3)[C@@H](OC(=O)c3ccccc3)[C@@H]2OC(=O)c2ccccc2)[C@H](OC)[C@H]1OC,-,-,H37Ra,MIC,-,>128 µg/mL
Clc1ccc(-c2nnc(CON=C(c3ccccc3)c3ccccc3)o2)cc1,-,-,-,inhibition,12.5 µg/mL,7–56%
NC(=O)c1cnc(Cl)cn1,-,-,ATCC 27294,MIC,-,16 µg/mL
CCCCCCCCO[C@@H]1O[C@H]([C@@H](COCc2ccccc2)O[C@H]2O[C@H](COC(=O)c3ccccc3)[C@@H](OC(=O)c3ccccc3)[C@@H]2OC(=O)c2ccccc2)[C@H](OCc2ccccc2)[C@H]1OCc1ccccc1,-,-,H37Ra,MIC,-,>128 µg/mL
CCOC(=O)c1c(NC(=O)c2c(F)c(F)c(F)c(F)c2F)sc2c1CCOC2,gyrA mutant (D94N),turbidity,H37Rv,EC50,-,0.17 µM
Cc1ccc(NC(=O)c2cccc(C(=O)Nc3ccc(C)c(Cl)c3)c2)cc1Cl,-,BACTEC,H37Rv,inhibition,12.5 µg/mL,0%
CC(C)CN=c1cc2n(-c3ccc(Cl)cc3)c3ccccc3nc-2cc1Nc1ccc(Cl)cc1,-,-,H37Rv,MIC,-,0.13 µg/mL
CNC(=O)OCC1=C(COC(=O)NC)C2OC1C(C(=O)OC)=C2c1ccc(Cl)cc1,-,BACTEC,H37Rv,MIC bound,-,>12.5 µg/mL
C=C[C@]1(C)C=C2[C@H](O)C[C@@H]3C(C)(CCC[C@@]3(C)CO)[C@H]2CC1,-,-,H37Rv,MIC,-,25–100 µg/mL
O=C(c1ccc(CCc2ccc(C(=O)C(Cl)Cl)cc2)cc1)C(Cl)Cl,-,-,H37Rv,MIC,-,0.78 µg/mL
C=CC(=C)CCC1C(C)CCC2[C@]1(C)CCC(OC(C)=O)[C@]2(C)C(=O)O,-,-,H37Rv,MIC,-,14.4 µg/mL
O=C(Cc1cccs1)N/N=C/c1ccc[nH]1,-,resazurin,H37Rv (ATCC 27294),MIC,-,>100 µg/mL
COc1cccc(OC)c1/C=C1\N=C(c2ccccc2)OC1=O,-,BACTEC,H37Rv,MIC bound,-,>12.5 µg/mL
CC(=O)O[C@H]1CC2C(C)(C)CCC[C@]2(C)C2CCC3[C@@]4(C)CC[C@H](C(C)(C)O)C4CC[C@@]3(C)[C@@]21C,-,-,H37Rv,MIC,-,>128 µM
C/C(=N\OCCc1nnc(COc2ccccc2)o1)c1ccccc1,-,-,-,inhibition,12.5 µg/mL,7–56%
O=C(c1ccc(Sc2ccccc2)cc1)C(Br)Br,-,-,H37Rv,MIC,-,25 µg/mL
COc1ccc2c(c1)O[C@H]1c3ccc(O)cc3OC[C@@H]21,-,BACTEC,H37Rv,MIC bound,-,>12.5 µg/mL
O=C(c1ccc(Oc2ccc(C(=O)C(Cl)Cl)cc2)cc1)C(Cl)Cl,-,-,H37Rv,MIC,-,3.125 µg/mL
CC1=C2[C@H]3OC(=O)[C@@H](C)[C@@H]3CC[C@@]2(C)C=CC1=O,-,-,H37Rv,MIC,-,>128 µg/mL
CCOc1ccc2cc(-n3nncc3COc3nc(-c4cccnc4)sc3C(=O)O)c(=O)oc2c1,-,resazurin,H37Rv,MIC,-,25.43 µM
O=C1CC(SC(=S)N2CCCCC2)C(=O)N1c1ccccc1,-,-,EMB-R,MIC,-,3.2 µg/mL
CC(C)N=c1cc2n(-c3ccccc3)c3ccccc3nc-2cc1Nc1ccccc1,-,-,H37Rv,MIC,-,0.3 µg/mL
CCOc1ccc2cc(-n3nncc3COc3nc(-c4ccncc4)sc3C=O)c(=O)oc2c1,-,resazurin,H37Rv,MIC,-,26.28 µM
CC(=O)NN(C/C=C/Cl)C/C=C/Cl,-,BACTEC,H37Rv,inhibition,12.5 µg/mL,8%
COC(=O)[C@]12CC[C@@H](C)[C@@](C)(O)[C@H]1C1=CC[C@@H]3[C@@]4(C)CC[C@H](O)C(C)(C)[C@@H]4CC[C@@]3(C)[C@]1(C)CC2,-,-,H37Rv,MIC,-,32 µM
O=[N+]([O-])c1cc2ncccc2c2ncccc12,-,BACTEC,H37Rv,MIC bound,-,≤12.5 µg/mL
CO[C@H]1/C=C/O[C@@]2(C)Oc3c(C)c(O)c4c(O)c(c(/C=N/N5CCN(C)CC5)c(O)c4c3C2=O)NC(=O)/C(C)=C\C=C\[C@H](C)[C@H](O)[C@@H](C)[C@@H](O)[C@@H](C)[C@H](OC(C)=O)[C@@H]1C,EJMCh4/1 MmpL3 (V285A),visual reading / absorbance,H37Rv,MIC90,-,0.6 µM
CCOC(=O)c1c(NC(=O)c2c(F)c(F)c(F)c(F)c2F)sc2c1CCNC2=O,gyrA mutant (D94N),turbidity,H37Rv,MIC,-,3.2 µM
COC(=O)c1sc(-c2ccccn2)nc1OCc1cnnn1-c1cc2ccc(O)cc2oc1=O,-,resazurin,H37Rv,MIC,-,26.18 µM
Cc1cnc(C(=O)NCN2CCOCC2)cn1,-,-,PZA-susceptible,MIC,-,100 µg/mL
Cc1conc1-c1ccc([N+](=O)[O-])o1,-,-,-,MIC,-,1 µg/mL
O=C(OCc1cnccn1)c1cnccn1,-,BACTEC,H37Rv,MIC bound,-,>12.5 µg/mL
N#CC1CC(c2ccc([N+](=O)[O-])o2)=NO1,-,-,-,MIC,-,3 µg/mL
Cc1c(C2(c3cc(C(C)C)c(O)c(CN(CC(=O)O)CC(=O)O)c3C)OS(=O)(=O)c3ccccc32)cc(C(C)C)c(O)c1CN(CC(=O)O)CC(=O)O,-,BACTEC,H37Rv,MIC bound,-,>12.5 µg/mL
CCOc1ccc2cc(-n3nncc3COc3nc(-c4ccccc4)sc3C(=O)OC)c(=O)oc2c1,-,resazurin,H37Rv,MIC,-,24.79 µM
CCC(=O)OC1CCn2c1nc1c2C(=O)C(C)=C(NC(C)=O)C1=O,-,BACTEC,H37Rv,inhibition,12.5 µg/mL,0%
CCCN(CCC)CNC(=O)c1cnccn1,-,-,MS6210,MIC,-,100 µg/mL
O=C(CCl)c1ccc(CCc2ccccc2)cc1,-,-,H37Rv,MIC,-,50 µg/mL

For reference, 9 entries again:

structure,mutations,read by,strain,read-out,tested at,value
C/C(=C\CN(C(C)C)C(C)C)CCC[C@H](C)CCC[C@H](C)CCCC(C)C,-,-,H37Rv,MIC,-,64 µg/mL
CC(=O)O[C@H]1CC2C(C)(C)CCC[C@]2(C)C2CCC3[C@@]4(C)CC[C@H](C(C)(C)O)C4CC[C@@]3(C)[C@@]21C,-,-,H37Rv,MIC,-,>128 µM
O=C1CC(SC(=S)N2CCCCC2)C(=O)N1c1ccccc1,-,-,EMB-R,MIC,-,3.2 µg/mL
N#Cc1c(NC(=O)c2c(F)c(F)c(F)c(F)c2F)sc2c1CCOC2,katG Y155 truncation mutant,turbidity,H37Rv,EC90,-,18 µM
CCCCCCCCO[C@@H]1O[C@H]([C@@H](COCc2ccccc2)O[C@H]2O[C@H](COC(=O)c3ccccc3)[C@@H](OC(=O)c3ccccc3)[C@@H]2OC(=O)c2ccccc2)[C@H](OCc2ccccc2)[C@H]1OCc1ccccc1,-,-,H37Ra,MIC,-,>128 µg/mL
CCNC(=O)c1c(NC(=O)c2c(F)c(F)c(F)c(F)c2F)sc2c1CCN(CC)C2,katG Y155 truncation mutant,turbidity,H37Rv,EC50,-,5.7 µM
O=C(Cc1cccs1)N/N=C/c1ccncc1,-,resazurin,H37Rv (ATCC 27294),MIC,-,>100 µg/mL
CCOCCOCCOCc1nc(C#N)c(N)o1,-,resazurin,H37Rv,MIC bound,-,>6.25 µg/mL
O=C(Cc1cccs1)N/N=C/c1ccc(O)cc1O,-,resazurin,H37Rv (ATCC 27294),MIC,-,361.9 µM